The text below walks through data of patent publication EP1785721A1, “Microbial, viral and mammalian susceptibility to agents that affect cell growth and metabolism, and mode of action of compounds” (Stratos Bio Ltd., priority 2005, dated 2007).

The data set is described as follows: Activity (international units) of the antibiotics used.

The compound `NC[C@@H]1O[C@H](O[C@H]2[C@@H](O)[C@H](O[C@@H]3[C@@H](O)[C@H](N)C[C@H](N)[C@H]3O[C@H]3O[C@H](CN)[C@@H](O)[C@H](O)[C@H]3N)O[C@@H]2CO)[C@H](N)[C@@H](O)[C@@H]1O.O=S(=O)(O)O` [Neomycin sulphate] registered an activity of 699 iU/ml.
